Pooled drug test results. Numbers come from NIAID ChemDB, via PubChem.

All rows: target-level tests; organism: HIV-1; protein: Protease

ICn: concentration for n% inhibition. Blank or dashed fields: not listed here. Lines come from different laboratories, so protocols vary.

compound	read by	changes	conditions	endpoint	result
N=S(=O)(C[C@@H](Cc1ccccc1)C(=O)N[C@H]1c2ccccc2C[C@H]1O)C[C@H](Cc1ccccc1)C(=O)N[C@H]1c2ccccc2C[C@H]1O	-	-	-	IC50	0.0373 µM
CC(C)OC(=O)NCCC(C)(C)CN(C[C@@H](O)[C@H](Cc1ccccc1)NC(=O)O[C@H]1CO[C@H]2OCC[C@H]21)S(=O)(=O)c1cccc(N)c1	fluorescence	-	-	Ki	<0.001 µM
CC1(C)CC[C@]2(C(=O)O)CC[C@]3(C)C(=CCC4[C@@]5(C)CC[C@@H](NC(=O)CCCCC(=O)O)C(C)(C)C5CC[C@]43C)C2C1	HPLC	-	-	IC50	2.1 µM
CC[C@H](C)[C@H](NC(=O)[C@@H]1CCCN1C(=O)[C@@H](O)[C@H](Cc1ccccc1)NC(=O)[C@H](CC(N)=O)NC(=O)CCc1ccccc1)C(=O)N[C@H](C(N)=O)C(C)C	-	-	-	IC50	<5 µM
CC(O)[C@H](NC(=O)CCCCCCCCCCCCCCC(=O)N[C@@H](CC(N)=O)C(=O)N[C@@H](Cc1ccccc1)C(=O)O)C(=O)N[C@@H](Cc1ccc(O)cc1)C(=O)N[C@@H](Cc1ccccc1)C(N)=O	-	-	-	IC50	7.2 µM
CC(C)(C)OC(=O)N[C@@H](Cc1ccccc1)[C@H](O)CNC[C@@H](O)[C@H](Cc1ccccc1)NC(=O)OC1(C)CCC1	HPLC	-	pH 5.5	IC50	<10 µM
CC(C)(C)NC(=O)[C@@H]1C[C@@H]2CCCC[C@@H]2CN1C[C@@H](O)C(NC(=O)[C@H](CC(N)=O)NC(=O)c1ccc2ccccc2n1)c1ccc(-c2cccs2)cc1	-	-	-	IC50	1.5 µM
C=C(C)OC(=O)NCCC(C)(C)CN(C[C@@H](O)[C@H](Cc1ccccc1)NC(=O)O[C@H]1CO[C@H]2OCC[C@H]21)S(=O)(=O)c1ccc2c(c1)OCO2	fluorescence	-	-	Ki	<0.001 µM
C[C@@H](O)[C@H](NC(=O)CCCCCCCCCCCCCCC(=O)N[C@@H](CC(N)=O)C(=O)N[C@@H](Cc1ccccc1)C(=O)O)C(=O)N[C@H](C(=O)N[C@@H](Cc1ccccc1)C(N)=O)C1CCCCC1	-	-	-	IC50	0.68 µM
CCCN=C(NC#N)NCCCC(C)(C)CN(C[C@@H](O)[C@H](Cc1ccccc1)NC(=O)O[C@H]1CO[C@H]2OCC[C@H]21)S(=O)(=O)c1ccc2c(c1)OCO2	fluorescence	-	-	Ki	<0.001 µM
CC(C)[C@H](NC(=O)[C@@H](NC(=O)CCCCCCCCCCCCCCC(=O)N[C@@H](CC(N)=O)C(=O)N[C@@H](Cc1ccccc1)C(=O)O)C(C)O)C(=O)N[C@@H](Cc1ccccc1)C(N)=O	-	-	-	Ki	1.35 µM
CC(C)(CCNC(=O)c1cc(F)cc(F)c1)CN(C[C@@H](O)[C@H](Cc1ccccc1)NC(=O)O[C@H]1CO[C@H]2OCC[C@H]21)S(=O)(=O)c1ccc2c(c1)OCO2	fluorescence	-	-	Ki	<0.001 µM
Cc1ccc(S(=O)(=O)N(CC[C@@H](O)[C@H](Cc2ccccc2)NC(=O)c2cc(C)cc(O)c2C)C(C)C)cc1	-	-	-	IC50	2.5 µM
Cc1ccccc1CNC(=O)[C@H]1N(C(=O)[C@@H](O)[C@H](CCc2ccccc2)NC(=O)O[C@@H]2CCOCOC2)CSC1(C)C	-	-	-	Ki	0.00078 µM
CNC(=O)NCCCCC(C)(C)CN(C[C@@H](O)[C@H](Cc1ccccc1)NC(=O)O[C@H]1CO[C@H]2OCC[C@H]21)S(=O)(=O)c1ccc2c(c1)OCO2	fluorescence	-	-	Ki	<0.001 µM
CC(C)C[C@H](NC(=O)CCCCCCCCCCCCCCC(=O)N[C@H](C(=O)N[C@@H](CC(C)C)C(=O)N[C@@H](Cc1ccccc1)C(N)=O)C(C)O)C(=O)N[C@@H](Cc1ccccc1)C(=O)O	-	-	-	IC50	1.47 µM
CC(C)(CCCCCNC(=O)O[C@@H]1CCOC1)CN(C[C@@H](O)[C@H](Cc1ccccc1)NC(=O)O[C@H]1CO[C@H]2OCC[C@H]21)S(=O)(=O)c1ccc2c(c1)OCO2	fluorescence	-	-	Ki	<0.001 µM
CC1(C)CC[C@]2(C(=O)O)CC[C@]3(C)C(=CCC4[C@@]5(C)CC[C@H](OC(=O)CC(=O)O)C(C)(C)C5CC[C@]43C)C2C1	HPLC	-	-	IC50	8 µM
CC(C)C[C@H](NC(=O)[C@@H](NC(=O)CCCCCCCCCCCCCCC(=O)N[C@@H](CC[N+](=O)[O-])C(=O)N[C@@H](Cc1ccccc1)C(=O)O)C(C)O)C(=O)N[C@@H](Cc1ccccc1)C(N)=O	-	-	-	IC50	1.98 µM
CC(=O)NCC(=O)NCCCC(C)(C)CN(C[C@@H](O)[C@H](Cc1ccccc1)NC(=O)O[C@H]1CO[C@H]2OCC[C@H]21)S(=O)(=O)c1ccc2c(c1)OCO2	fluorescence	-	-	Ki	<0.001 µM
CC(C)(C)NC(=O)[C@H]1N(C(=O)[C@@H](O)[C@H](Cc2ccccc2)NC(=O)[C@H](CC(N)=O)NC(=O)COc2ccccc2Cl)CSC1(C)C	-	-	-	IC50	<0.05 µM
CC(C)[C@H](NC(=O)[C@H](O)Cc1ccccc1)C(=O)N[C@@H](Cc1ccccc1)[C@H](O)CNC[C@@H](O)[C@H](Cc1ccccc1)NC(=O)OC(C)(C)C	HPLC	-	pH 5.5	IC50	<10 µM
CC(C)(CCCNC(=O)C1CC1)CN(C[C@@H](O)[C@H](Cc1ccccc1)NC(=O)O[C@H]1CO[C@H]2OCC[C@H]21)S(=O)(=O)c1ccc2c(c1)OCO2	fluorescence	-	-	Ki	<0.001 µM
CCC[C@H](C)CN(C[C@@H](O)[C@H](CCc1ccccc1)NC(=O)c1cccc(O)c1)S(=O)(=O)c1ccc2ncsc2c1	-	-	-	Ki	0.000046 µM
CC(C)(CCCCNS(C)(=O)=O)CN(C[C@@H](O)[C@H](Cc1ccccc1)NC(=O)OC1COCOC1)S(=O)(=O)c1ccc2c(c1)OCO2	fluorescence	-	-	Ki	<0.001 µM
Cc1c(O)cccc1C(=O)N[C@@H](Cc1ccccc1)[C@H](O)CCN(C)[C@@H](Cc1ccccc1)C(=O)NC(C)(C)C	-	-	-	IC50	26.2 µM
CC1(C)CC[C@]2(C(=O)O)CC[C@]3(C)C(=CCC4[C@@]5(C)CC/C(=N\OC(=O)CCCCC(=O)O)C(C)(C)C5CC[C@]43C)C2C1	HPLC	-	-	IC50	5.5 µM
CC(C)C[C@H](NC(=O)[C@@H](NC(=O)CCCCCCCCCCCCCCC(=O)N[C@@H](CC(N)=O)C(=O)N[C@@H](Cc1ccccc1)C(=O)O)C(C)O)C(=O)N[C@@H](Cc1cc(I)c(Oc2cc(I)c(O)c(I)c2)c(I)c1)C(N)=O	-	PR-L10I K45R I54V L63P A71V V82T L90M I93L	-	IC50	~0.4 µM
CC(C)(C)NC(=O)[C@H]1N(C(=O)[C@@H](O)[C@H](Cc2ccccc2)NC(=O)[C@H](CC(N)=O)NC(=O)COc2ccc(-c3ccccc3)cc2)CSC1(C)C	-	-	-	IC50	<0.05 µM
CC(C)(CCCCCN)CN(C[C@@H](O)[C@H](Cc1ccccc1)NC(=O)O[C@H]1CO[C@H]2OCC[C@H]21)S(=O)(=O)c1ccc2c(c1)OCO2	fluorescence	-	-	Ki	<0.001 µM
CC(=O)N(CC[C@@H](O)[C@H](Cc1ccccc1)NC(=O)c1cccc(O)c1C)[C@@H](Cc1ccccc1)C(=O)NCc1cccc(C)c1	-	-	-	IC50	1.1 µM
CC(C)(C)OC(=O)N[C@@H](Cc1ccccc1)[C@H](O)CNC[C@@H](O)[C@H](Cc1ccccc1)NC(=O)OC(C)(C)c1ccccc1	HPLC	-	pH 5.5	IC50	<10 µM
CC1(C)CC[C@]2(C(=O)O)CC[C@]3(C)C(=CC[C@@H]4[C@@]5(C)CC/C(=N\O)C(C)(C)[C@@H]5CC[C@]43C)[C@@H]2C1	HPLC	-	-	IC50	5.5 µM
Cc1ccc(S(=O)(=O)N(CCO)CC[C@@H](O)[C@H](Cc2ccccc2)NC(=O)c2cccc(O)c2C)cc1	-	-	-	IC50	6.5 µM
COC(=O)[C@]12CCC(C)(C)C[C@H]1C1=CC[C@@H]3[C@@]4(C)CC[C@H](OC(=O)CCCCC(=O)O)C(C)(C)[C@@H]4CC[C@@]3(C)[C@]1(C)CC2	HPLC	-	-	IC50	7.5 µM
CCCS(=O)(=O)NCCCC(C)(C)CN(C[C@@H](O)[C@H](Cc1ccccc1)NC(=O)O[C@H]1CO[C@H]2OCC[C@H]21)S(=O)(=O)c1ccc2c(c1)OCO2	fluorescence	-	-	Ki	<0.001 µM
CC(C)(C)OC(=O)N[C@@H](Cc1ccccc1)[C@H](O)CNC[C@@H](O)[C@H](Cc1ccccc1)NC(=O)OC(C)(C)C#CCCc1ccccc1	HPLC	-	pH 5.5	IC50	<10 µM
CC1(C)CC[C@]2(C(=O)O)CC[C@]3(C)C(=CCC4[C@@]5(C)CC[C@H](NC(=O)CCCCC(=O)N[C@H]6CC[C@@]7(C)C(CC[C@]8(C)C7CC=C7C9CC(C)(C)CC[C@]9(C(=O)O)CC[C@]78C)C6(C)C)C(C)(C)C5CC[C@]43C)C2C1	HPLC	-	-	IC50	3.3 µM
Cc1c(O)cccc1C(=O)N[C@@H](Cc1ccccc1)[C@H](O)CCN[C@H](C(=O)NC(C)(C)C)C(C)(C)C	-	-	-	IC50	6 µM
C=C(C)OC(=O)NCCCCCC(C)(C)CN(C[C@@H](O)[C@H](Cc1ccccc1)NC(=O)O[C@H]1CO[C@H]2OCC[C@H]21)S(=O)(=O)c1ccc2c(c1)OCO2	fluorescence	-	-	Ki	<0.001 µM
CC(=O)c1cccc(N2C[C@@H](C(=O)N[C@@H](CCc3ccccc3)[C@H](O)CN(CC(C)C)S(=O)(=O)c3ccc4c(c3)OCO4)OC2=O)c1	-	-	-	Ki	0.000006 µM
CC(C)(CCCNC(=O)CN)CN(C[C@@H](O)[C@H](Cc1ccccc1)NC(=O)O[C@H]1CO[C@H]2OCC[C@H]21)S(=O)(=O)c1ccc2c(c1)OCO2	fluorescence	-	-	Ki	<0.001 µM
CC[C@@H](C)[C@H](NC(=O)[C@@H]1CCCN1C(=O)[C@@H](O)[C@H](Cc1ccccc1)NC(=O)[C@H](CCC(N)=O)NC(=O)CCc1ccccc1)C(=O)N[C@H](C(N)=O)C(C)C	-	-	-	IC50	<5 µM
CC(C)(CCCNC(=O)Oc1ccc(F)cc1)CN(C[C@@H](O)[C@H](Cc1ccccc1)NC(=O)O[C@H]1CO[C@H]2OCC[C@H]21)S(=O)(=O)c1ccc2c(c1)OCO2	fluorescence	-	-	Ki	<0.001 µM
CC(=O)N(CC[C@@H](O)[C@H](Cc1ccccc1)NC(=O)c1cccc(O)c1C)[C@@H](Cc1ccc(OCc2ccccc2)cc1)C(=O)NC(C)(C)C	-	-	-	IC50	3.8 µM
CC(C)NC(=O)NCCCCC(C)(C)CN(C[C@@H](O)[C@H](Cc1ccccc1)NC(=O)O[C@H]1CO[C@H]2OCC[C@H]21)S(=O)(=O)c1cccc2c1OCCO2	fluorescence	-	-	Ki	<0.001 µM
Cc1cc(CO)ccc1CNC(=O)[C@H]1N(C(=O)[C@@H](O)[C@H](CCc2ccccc2)NC(=O)O[C@H]2CO[C@H]3OCC[C@H]32)CSC1(C)C	-	-	-	Ki	0.00031 µM
CC(C)(C)NC(=O)[C@@H]1CCCN1C(=O)[C@@H](O)[C@H](Cc1ccccc1)NC(=O)[C@H](CC(N)=O)NC(=O)COC(c1cccc(Cl)c1)c1cccc(Cl)c1	-	-	-	IC50	<0.05 µM
CC(C)NC(=O)OCCCCC(C)(C)CN(C[C@@H](O)[C@H](Cc1ccccc1)NC(=O)O[C@H]1CO[C@H]2OCC[C@H]21)S(=O)(=O)c1ccc2c(c1)OCO2	fluorescence	-	-	Ki	<0.001 µM
C=C(C)[C@@H]1CC[C@]2(C(=O)O)CC[C@]3(C)[C@H](CC[C@@H]4[C@@]5(C)CC[C@H](OC(=O)C(=O)O)C(C)(C)C5CC[C@]43C)[C@@H]12	HPLC	-	-	IC50	7 µM
CC(C)(C)OC(=O)N[C@@H](Cc1ccccc1)[C@H](O)CNC[C@@H](O)[C@H](Cc1ccccc1)NC(=O)C1NC(=O)OC1(C)C	HPLC	-	pH 5.5	IC50	<10 µM
COC(=O)NCCCCC(C)(C)CN(C[C@@H](O)[C@H](Cc1ccccc1)NC(=O)O[C@@H]1CO[C@@H]2OCC[C@@H]21)S(=O)(=O)c1ccc(N)cc1	fluorescence	-	-	Ki	<0.001 µM
CCN(CC[C@@H](O)[C@H](Cc1ccccc1)NC(=O)c1cccc(O)c1C)S(=O)(=O)c1ccc(C)cc1	-	-	-	IC50	1.6 µM
COC(=O)NCCCCC(C)(C)CN(C[C@@H](O)[C@H](Cc1ccccc1)NC(=O)O[C@H]1CO[C@H]2OCC[C@H]21)S(=O)(=O)c1ccc(N)cc1	fluorescence	-	-	Ki	<0.001 µM
C[C@@H]1CC[C@]2(C(=O)O)CC[C@]3(C)C(=CCC4[C@@]5(C)CC[C@H](OC(=O)CC(=O)O)C(C)(C)C5CC[C@]43C)C2[C@H]1C	HPLC	-	-	IC50	6 µM
CCC(C)CNC(=O)OCCC(C)(C)CN(C[C@@H](O)[C@H](Cc1ccccc1)NC(=O)O[C@H]1CO[C@H]2OCC[C@H]21)S(=O)(=O)c1ccc2c(c1)OCO2	fluorescence	-	-	Ki	<0.001 µM
Cc1c(O)cccc1C(=O)N[C@@H](Cc1ccccc1)[C@H](O)CCN(Cc1ccccc1)[C@@H](Cc1ccccc1)C(=O)NC(C)(C)C	-	-	-	IC50	4.3 µM

The first 4 rows once more:

| compound | read by | changes | conditions | endpoint | result |
|---|---|---|---|---|---|
| N=S(=O)(C[C@@H](Cc1ccccc1)C(=O)N[C@H]1c2ccccc2C[C@H]1O)C[C@H](Cc1ccccc1)C(=O)N[C@H]1c2ccccc2C[C@H]1O | - | - | - | IC50 | 0.0373 µM |
| CC(C)OC(=O)NCCC(C)(C)CN(C[C@@H](O)[C@H](Cc1ccccc1)NC(=O)O[C@H]1CO[C@H]2OCC[C@H]21)S(=O)(=O)c1cccc(N)c1 | fluorescence | - | - | Ki | <0.001 µM |
| CC1(C)CC[C@]2(C(=O)O)CC[C@]3(C)C(=CCC4[C@@]5(C)CC[C@@H](NC(=O)CCCCC(=O)O)C(C)(C)C5CC[C@]43C)C2C1 | HPLC | - | - | IC50 | 2.1 µM |
| CC[C@H](C)[C@H](NC(=O)[C@@H]1CCCN1C(=O)[C@@H](O)[C@H](Cc1ccccc1)NC(=O)[C@H](CC(N)=O)NC(=O)CCc1ccccc1)C(=O)N[C@H](C(N)=O)C(C)C | - | - | - | IC50 | <5 µM |